Anti-infective test results gathered from many reports (values: NIAID ChemDB through PubChem).

All rows: host cell toxicity; cell line: L929; read-out: CC50

CCn: concentration that lowers growth or viability of the cells by n%. Lines come from different laboratories, so protocols vary.

SMILES,result
C[N+]1(C)CCN(c2ncnc(Cl)c2[N+](=O)[O-])CC1,>500.5 µg/mL
CCCSc1nsc(-c2ccccc2)c1C#N,200 µg/mL
Nc1cc(SCCOCP(=O)(O)O)nc(N)n1,<10 µM
Cc1nc(N2CCC[N+]3(CC2)CC[N+]2(CCCN(c4nc(C)nc5c4no[n+]5[O-])CC2)CC3)c2c(no[n+]2[O-])n1,>291.4 µg/mL
CSc1nc(N)cc(OCCOCP(=O)(O)O)n1,<10 µM
CCOC(=O)CSc1nsc(-c2ccccc2)c1C#N,200 µg/mL
Nc1cc(=O)n(CCOCP(=O)(O)O)cn1,<10 µM
COc1ncnc(N2CC[N+]3(CC2)CC[N+]2(CCN(c4ncnc(OC)c4[N+](=O)[O-])CC2)CC3)c1[N+](=O)[O-],>304.2 µg/mL
Nc1cc(=O)n(CCOCP(=O)(O)O)c(N)n1,<10 µM
O=[N+]([O-])c1c(N2CCCC2)ncnc1N1CC[N+]2(CC1)CC[N+]1(CCN(c3ncnc(N4CCCC4)c3[N+](=O)[O-])CC1)CC2,>293.4 µg/mL
CCSc1nsc(-c2ccccc2)c1C#N,100 µg/mL
C=C1CCCC2[C@@H](CCC3(C)CCC([C@@H](C)C(=O)O)OO3)[C@H](C)CC[C@@]12C,<0.392 µM
N#Cc1c(N2CCCCC2)nsc1-c1ccccc1,25 µg/mL
Nc1nc(OCCOCP(=O)(O)O)cc(=O)n1CCOCP(=O)(O)O,<10 µM
Cc1cc(N2CC[N+](C)(C)CC2)c([N+](=O)[O-])c(N2CC[N+](C)(C)CC2)c1,>322.9 µg/mL
N#Cc1c(SCCO)nsc1-c1ccccc1,5 µg/mL
OC(CCl)CN1CC[N+]2(CC1)CC[N+]1(CCN(CC(O)CCl)CC1)CC2,>415.5 µg/mL
CCCSc1nsc(-c2ccccc2)c1C(N)=O,300 µg/mL

2 of the rows above, restated:

SMILES,result
N#Cc1c(SCCO)nsc1-c1ccccc1,5 µg/mL
Nc1nc(OCCOCP(=O)(O)O)cc(=O)n1CCOCP(=O)(O)O,<10 µM